Reference: PubChem BioAssay AID1259414 (Drosophila RNAi Screening Center, 2018)

Assay: 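Host factors increasing or decreasing Wolbachia levels in cultured fly cells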 (primary screen)
Cell system: Drosophila JW18 cells infected with Wolbachia
Knock-down reagent: long dsRNA against Drosophila genes, 0.25 µg dsRNA per well of a 384-well plate
Time to read-out: 5 days
Challenge: cells persistently infected with Wolbachia before knock-down; no added drug
Read-out: 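Automated imaging of bacterial rRNA staining divided by host cell count, reported as plate-normalised robust z-score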
Direction: Wolbachia per cell robust z: higher = more Wolbachia per host cell than the plate typical
Call rule: 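Hit when robust z is 1.5 or more, or -1.5 or less, in at least two of three replicates; excludes dsRNAs with several or no targets, genes not expressed in JW18 and well A1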
The deposit covers about 24,000 reagents; below is an unselected part of those with a known target gene and a result. Over the whole deposit, about 1,210 (5%) got an active call. 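Inactive calls also include excluded dsRNAs with several or no targets, genes unexpressed in JW18, and well A1, regardless of score.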 Unmarked entries are inactive. A plus sign joins genes that one reagent is predicted to hit. Reagent sequences are not shown.

Against cdm [DRSC16213] the deposit lists Wolbachia per cell robust z, rep 1 = -4.18; Wolbachia per cell robust z, rep 2 = -0.889; Wolbachia per cell robust z, rep 3 = 0.066.
CG14797 [DRSC17955] scored Wolbachia per cell robust z, rep 1 = 0.399; Wolbachia per cell robust z, rep 2 = -4.87; Wolbachia per cell robust z, rep 3 = -0.757.
CG15580 [DRSC12266] showed Wolbachia per cell robust z, rep 1 = -0.909; Wolbachia per cell robust z, rep 2 = 0.00176; Wolbachia per cell robust z, rep 3 = 0.234.
With knock-down of CG15580 [DRSC24180], the record shows Wolbachia per cell robust z, rep 1 = -0.4; Wolbachia per cell robust z, rep 2 = 2.37; Wolbachia per cell robust z, rep 3 = -7.3.
With knock-down of CG13369 [DRSC18481], the screen gave Wolbachia per cell robust z, rep 1 = -0.886; Wolbachia per cell robust z, rep 2 = -1.37; Wolbachia per cell robust z, rep 3 = -0.595.
CG13369 [DRSC29455] gave Wolbachia per cell robust z, rep 1 = -0.346; Wolbachia per cell robust z, rep 2 = -6.88; Wolbachia per cell robust z, rep 3 = 0.235.
CG17404 [DRSC15234] gave Wolbachia per cell robust z, rep 1 = -4.62; Wolbachia per cell robust z, rep 2 = 0.112; Wolbachia per cell robust z, rep 3 = 0.635.
Against Or22a [DRSC00764] the deposit lists Wolbachia per cell robust z, rep 1 = -0.614; Wolbachia per cell robust z, rep 2 = -0.628; Wolbachia per cell robust z, rep 3 = -0.35.
Or22a [DRSC26009] scored Wolbachia per cell robust z, rep 1 = -0.768; Wolbachia per cell robust z, rep 2 = 0.456; Wolbachia per cell robust z, rep 3 = -1.22.
CG42299 + CG42300 [DRSC19680] gave Wolbachia per cell robust z, rep 1 = -1.45; Wolbachia per cell robust z, rep 2 = 0.621; Wolbachia per cell robust z, rep 3 = 0.283.
For Lk [DRSC10022], the values are Wolbachia per cell robust z, rep 1 = 0.731; Wolbachia per cell robust z, rep 2 = -2.34; Wolbachia per cell robust z, rep 3 = -0.0411.
asRNA:CR31144 + RpL3 [DRSC16834] gave Wolbachia per cell robust z, rep 1 = 0.507; Wolbachia per cell robust z, rep 2 = 2.52; Wolbachia per cell robust z, rep 3 = 3.1.

Just “Wolbachia per cell robust z, rep 1” (2 entries from above):
CG13369 [DRSC18481] = -0.886
CG13369 [DRSC29455] = -0.346
